Pooled drug test results. Numbers come from NIAID ChemDB, via PubChem.

Common to all: tests in culture

Two numbers with a dash give a range or band. MIC50, MIC90 and the like: level of inhibition, or share of isolates inhibited. Neighbouring rows are from separate reports. An empty or dashed field is not shown. Inhibition is in % at the dose shown (toxicity tests: loss of growth or viability). ECn: concentration that inhibits the pathogen or its effect by n%.

SMILES | organism | strain or isolate | method | conditions | endpoint | tested at | result
N=C(N)c1ccc2nc(-c3ccc(-c4nc5ccc(C(=N)N)cc5[nH]4)[nH]3)[nH]c2c1 | Candida albicans | Isolate 3022 fluconazole-resistant |  |  | MFC |  | 0.78 µg/mL
COc1ccc(/C=N\O)cc1 | Candida lipolytica |  | broth dilution |  | MFC |  | 6620 µM
Clc1ccc(C(c2ccccc2)N2CCN(CCn3ccnc3)CC2)cc1 | Candida parapsilosis |  | agar |  | MIC90 |  | >256 µg/mL
CCn1cc[n+](COCCCCCCOC[n+]2ccn(CC)c2)c1 | Candida krusei | ATCC 6258 | agar diffusion |  | MIC100 |  | 105 µM
CCC(C)n1ncn(-c2ccc(N3CCN(c4ccc(OC[C@H]5CO[C@](Cn6cncn6)(c6ccc(Cl)cc6Cl)O5)cc4)CC3)cc2)c1=O | Candida lusitaniae |  | broth dilution |  | MIC50 |  | 0.016 µg/mL
Clc1ccc(COC(Cn2ccnc2)c2ccc(Cl)cc2Cl)c(Cl)c1 | Candida glabrata | 40 isolates | broth dilution | pH 5 | EC90 |  | 8 µg/mL
C[C@@H](c1ncncc1F)[C@](O)(Cn1cncn1)c1ccc(F)cc1F | Candida spp. | Fluconazole-resistant | broth dilution |  | MIC90 |  | >4 µg/mL
O/N=C\c1ccccc1Cl | Candida famata |  |  |  | MIC100 |  | 1420 µM
O=C1S/C(=C\c2ccoc2)C(=O)N1CC(O)(Cn1nccn1)c1ccc(F)cc1F | Candida colliculosa | Fluconazole-resistant 100 |  |  | MIC50 |  | 2.31 µg/mL
CC[C@@H]([C@H](C)O)n1ncn(-c2ccc(N3CCN(c4ccc(OC[C@@H]5CO[C@@](Cn6cncn6)(c6ccc(F)cc6F)C5)cc4)CC3)cc2)c1=O | Candida lusitaniae |  |  |  | MIC50 |  | 0.008–1 µg/mL
Cc1ccc(-n2cc(C(C)(C)O)nn2)cc1C | Candida albicans | URM 4986 | broth dilution |  | inhibition | 2048 µg/mL | 0%
Nc1ncccc1-c1cc(Cc2ccc(COc3ccccn3)cc2)no1 | Candida glabrata | 8661 | broth dilution |  | MIC |  | 0.06 µg/mL
O=C(CCn1ccnc1)c1cccc(O)c1 | Candida kefyr | RTCC 1019 | broth dilution |  | MIC |  | >64 µg/mL
O=[N+]([O-])c1ccc(/C=N\O)cc1 | Candida famata |  |  |  | MIC100 |  | 3010 µM
OC(CCn1ccnc1)c1ccc(-c2ccccc2)cc1 | Candida kefyr | RTCC 1019 | broth dilution |  | MIC |  | 32 µg/mL
CCCCCCCCCCCn1cc[n+](COCCCCCCOC[n+]2ccn(CCCCCCCCCCC)c2)c1 | Candida krusei | ATCC 6258 | agar diffusion |  | MIC100 |  | 2 µM
COc1ccc(N2C(=O)C[C@@H](C)C2=O)cc1 | Candida lusitaniae | CCC 134-2000 | broth dilution / turbidity |  | MIC |  | 62.5 µg/mL
CCC(C)n1ncn(-c2ccc(N3CCN(c4ccc(OC[C@H]5CO[C@](Cn6cncn6)(c6ccc(Cl)cc6Cl)O5)cc4)CC3)cc2)c1=O | Candida glabrata | 40 isolates | broth dilution | pH 6 | EC90 |  | >16 µg/mL
O/N=C\c1ccccc1O | Candida lipolytica |  |  |  | MIC100 |  | 3600 µM
CCCCCCCCCCCn1cc[n+](COCCCCOC[n+]2ccn(CCCCCCCCCCC)c2)c1 | Candida krusei | ATCC 6258 | agar diffusion |  | MIC100 |  | 8 µM
Nc1scc2c1c(=O)oc1ccccc12 | Candida lusitaniae | ATCC 200950 | broth dilution |  | MIC |  | 2 µg/mL
Clc1ccc(C(c2ccccc2)n2nnc3ccccc32)cc1 | Candida glabrata |  | broth dilution |  | MFC |  | >256 µg/mL
CCC(C)CC(C)CCCCCCCCC(=O)N[C@H]1C[C@@H](O)[C@H](NCCN)NC(=O)[C@@H]2[C@@H](O)CCN2C(=O)[C@H]([C@H](O)CCN)NC(=O)[C@H]([C@H](O)[C@@H](O)c2ccc(O)cc2)NC(=O)[C@@H]2C[C@@H](O)CN2C(=O)[C@H]([C@@H](C)O)NC1=O | Candida albicans | 15 isolates | broth dilution | pH 7 | EC90 |  | 0.125 µg/mL
CC(C)(O)c1cn(-c2ccc([N+](=O)[O-])cc2)nn1 | Candida parapsilosis | ATCC 22019 | broth dilution |  | inhibition | 2048 µg/mL | 0%
CC[C@@H]([C@H](C)O)n1ncn(-c2ccc(N3CCN(c4ccc(OC[C@@H]5CO[C@@](Cn6cncn6)(c6ccc(F)cc6F)C5)cc4)CC3)cc2)c1=O | Candida glabrata | 40 isolates | broth dilution | pH 4 | MIC |  | 4 µg/mL
C/C(=N/O)C(Cl)(Cl)Cl | Candida famata |  |  |  | MIC100 |  | 6450 µM
C=CCc1ccc(OC)c(OC)c1 | Candida tropicalis | 3220 | turbidity |  | MIC90 |  | 340 µg/mL
CC1(C)O[C@H]2[C@H](O)[C@@H](N=[N+]=[N-])C=C(c3ccc(C=O)cc3)[C@H]2O1 | Candida tropicalis | C 131 | broth dilution / turbidity |  | inhibition | 250 µg/mL | 91.68%
CC1CC(=O)N(c2ccc(F)cc2)C1=O | Candida lusitaniae | CCC 134-2000 | broth dilution / turbidity |  | MIC |  | 250 µg/mL
C[C@@H](c1ncncc1F)[C@](O)(Cn1cncn1)c1ccc(F)cc1F | Candida lusitaniae |  |  |  | MIC50 |  | 0.008–0.5 µg/mL
O=C(c1ccccc1)C(c1ccccc1)n1nnc2ccccc21 | Candida dubliniensis |  | agar |  | MIC90 |  | >256 µg/mL
CC(C)(O)c1cn(-c2ccc3ccccc3c2)nn1 | Candida parapsilosis | URM 3624 | broth dilution |  | inhibition | 2048 µg/mL | 0%
OC(CCn1ccnc1)c1cccc(C(O)c2ccc(Br)cc2)c1 | Candida guilliermondii | RTCC 1377 | broth dilution |  | MIC |  | 16 µg/mL
Cc1ccc(N2C(=O)CC(C)C2=O)cc1 | Candida lusitaniae | CCC 134-2000 | broth dilution / turbidity |  | MIC |  | 250 µg/mL
c1ccc(C(c2ccccc2)n2cncn2)cc1 | Candida glabrata |  | agar |  | MIC90 |  | 0.5 µg/mL
OC(CCn1ccnc1)c1cccc(C(O)c2ccc(Cl)c(Cl)c2)c1 | Candida guilliermondii | RTCC 1377 | broth dilution |  | MIC |  | 64 µg/mL
Clc1ccc(C(c2ccccc2)n2cncn2)cc1 | Candida dubliniensis |  | broth dilution |  | MFC |  | 64 µg/mL
C[C@@H](c1ncncc1F)[C@](O)(Cn1cncn1)c1ccc(F)cc1F | Candida tropicalis | 8663 | broth dilution |  | MIC |  | 0.03 µg/mL
O/N=C\c1cccs1 | Candida famata |  |  |  | MIC100 |  | 3930 µM
CC1C(=O)N(c2ccccc2)C(=O)C1C | Candida lusitaniae | CCC 134-2000 | broth dilution / turbidity |  | MIC |  | 62.5 µg/mL
OC(CCn1ccnc1)c1ccc(Br)cc1 | Candida guilliermondii | RTCC 1377 | broth dilution |  | MIC |  | >64 µg/mL
CCCCCCCCn1cc[n+](COCCCOC[n+]2ccn(CCCCCCCC)c2)c1 | Candida krusei | ATCC 6258 | agar diffusion |  | MIC100 |  | 150 µM
O=C(CCn1ccnc1)c1cccc2ccccc12 | Candida guilliermondii | RTCC 1377 | broth dilution |  | MIC |  | 64 µg/mL
c1ccc(C(c2ccccc2)n2nnc3ccccc32)cc1 | Candida dubliniensis |  | broth dilution |  | MFC |  | >256 µg/mL

Repeating the final 3 entries:

SMILES | organism | strain or isolate | method | conditions | endpoint | tested at | result
CCCCCCCCn1cc[n+](COCCCOC[n+]2ccn(CCCCCCCC)c2)c1 | Candida krusei | ATCC 6258 | agar diffusion |  | MIC100 |  | 150 µM
O=C(CCn1ccnc1)c1cccc2ccccc12 | Candida guilliermondii | RTCC 1377 | broth dilution |  | MIC |  | 64 µg/mL
c1ccc(C(c2ccccc2)n2nnc3ccccc32)cc1 | Candida dubliniensis |  | broth dilution |  | MFC |  | >256 µg/mL